Data set [1] deals with DENV-2 NGC. Briefly: Antiviral activity against DENV-2 NGC in Vero-B cells (viral RNA load by RT-qPCR). The conditions noted are these: DENV-2 in Vero-B cells (Table 3); ratio CC50 / EC50. The data set is classed as cell-based, Dengue virus. (In general: Quantitative PCR measures a nucleic acid by following its amplification.)
In data set [2] the test system is YFV-17D. Type of data set: cell-based, yellow fever virus. Conditions: YFV in Vero-B cells (Table 5); ratio CC50 / EC50.
Data set [3] relates to DENV-2 NGC. Nature of the data set: Antiviral activity against DENV-2 NGC in A549 cells (viral RNA load by RT-qPCR). The data set is classed as cell-based, Dengue virus. The conditions noted are these: DENV-2 in A549 cells (Table 6); ratio CC50 / EC50.

Regarding `COc1ccc(NC(C(=O)c2c[nH]c3ccccc23)c2ccccc2)cc1OC` (centres unmarked) [CPD-001], the SI stood at 380 in data set [1] and 5 in data set [2].

For `COc1cc(NC(C(=O)c2c[nH]c3ccccc23)c2ccccc2)cc(OC)c1` (centres unmarked) [CPD-002], the results for the SI in data set [1] and in data set [2] were 2307 and 9, respectively.

For the compound `COc1cccc(NC(C(=O)c2c[nH]c3ccccc23)c2ccccc2)c1` (centres unmarked) [CPD-010], the SI in data set [1] is listed as 244; in data set [3] it was 242; in data set [2], above 22.

In the case of `COc1cc(NC(C(=O)c2c(C)[nH]c3ccccc23)c2ccccc2)cc(OC)c1` (centres unmarked) [CPD-012], the SI in data set [1] is on record as 297; in data set [2] it was above 23.

Consider `COc1cc(NC(C(=O)c2c[nH]c3cc(Cl)ccc23)c2ccccc2)cc(OC)c1` (centres unmarked) [CPD-013], for which the SI in data set [1] is listed as 5726; in data set [2], 20.

Turning to `COc1cccc(NC(C(=O)c2c[nH]c3ccccc23)c2cccnc2)c1` (centres unmarked) [CPD-019], the SI in data set [1] came to 514; in data set [2], 9.

On to `COc1cc(NC(C(=O)c2c[nH]c3ccc(F)cc23)c2ccccc2)cc(OC)c1` (centres unmarked) [CPD-131], for which the SI in data set [1] came out at 1779; in data set [3], 1447.

With `COc1cccc(NC(C(=O)c2csc3ccccc23)c2ccccc2)c1` (centres unmarked) [CPD-193], the SI is above 185 in data set [1] and above 250 in data set [2].

Take `COc1cc(NC(C(=O)c2c[nH]c3ccccc23)c2cccnc2)cc(OC)c1` (centres unmarked) [CPD-236]: the SI in data set [1] is listed as 4562; in data set [3] it was 3428.

Consider `COc1cncc(NC(C(=O)c2c[nH]c3cc(F)ccc23)c2ccc(OC)nc2)c1` (centres unmarked) [CPD-242], for which the SI in data set [1] was determined as 1340; in data set [3], 4642.

As for `COc1cc(NC(C(=O)c2c[nH]c3ccccc23)c2ccccc2)cc(OCCO)c1` (centres unmarked) [CPD-255], the SI was determined as 1535 in data set [1] and 2030 in data set [3].

Regarding `COc1cc(NC(C(=O)c2c[nH]c3ccccc23)c2cc3ccccn3n2)cc(OC)c1` (centres unmarked) [CPD-293], the SI in data set [1] is given as 50498; in data set [3] it was above 43103.

On to `COc1cc(NC(C(=O)c2c[nH]c3ccccc23)c2cnc(OC)cn2)cc(OC)c1` (centres unmarked) [CPD-294], for which the results for the SI in data set [1] and in data set [3] were 2598 and 4048, respectively.

As to `COc1cc(CO)cc(NC(C(=O)c2c[nH]c3ccccc23)c2ccc(C)nc2)c1` (centres unmarked) [CPD-320], the SI in data set [1] is recorded as above 1781; in data set [3] it was above 22522.

With `COc1cccc(NC(C(=O)c2c[nH]c3ccccc23)c2nc3ccccc3o2)c1` (centres unmarked) [CPD-328], the values for the SI in data set [1] and in data set [3] were 1231 and 2140, respectively.

With `COc1cc(CO)cc(NC(C(=O)c2c[nH]c3ccc(F)cc23)c2cccnc2)c1` (centres unmarked) [CPD-334], the SI came out at 1746 in data set [1] and 3536 in data set [3].

For the compound `COc1cc(NC(C(=O)c2c[nH]c3ccccc23)c2cc3ccccn3n2)cc(OCCO)c1` (centres unmarked) [CPD-336], the values for the SI in data set [1] and in data set [3] were above 8498 and above 22523, respectively.

On to `COc1cc(NC(C(=O)c2cn(C)c3ccccc23)c2ccccc2)cc(OC)c1` (centres unmarked) [CPD-338], for which the SI is on record as above 16618 in data set [1] and above 4808 in data set [3].

Take `COc1cc(NC(C(=O)c2nn(C)c3ccccc23)c2ccc(F)cc2)cc(OC)c1` (centres unmarked) [CPD-340]: the SI is reported as above 6223 in data set [1] and above 4425 in data set [3].

For the compound `COc1cc(NC(C(=O)c2c[nH]c3ccccc23)c2ccc(C)nc2)cc(OC)c1` (centres unmarked) [CPD-346], the SI in data set [1] turned out to be 9945; in data set [3] it was 7559.

As for `COc1cc(NC(C(=O)c2c[nH]c3ccccc23)c2ccc(F)cc2)cc(OCCO)c1` (centres unmarked) [CPD-350], the SI in data set [1] worked out at 3462; in data set [3] it was 7758.

For `COc1cc(NC(C(=O)c2c[nH]c3ccc(F)cc23)c2ccccc2)cc(OCCO)c1` (centres unmarked) [CPD-355], in data set [1], the SI was determined as 1511.

On to `COc1cc(NC(C(=O)c2c[nH]c3ccccc23)c2ccccc2)ccc1F` (centres unmarked) [CPD-356], for which the SI in data set [1] is on record as 113.

Regarding `COc1cc(NC(C(=O)c2c[nH]c3cccc(CCCO)c23)c2ccccc2)cc(OC)c1` (centres unmarked) [CPD-357], the SI in data set [1] is given as 40.

Regarding `COc1cc(NC(C(=O)c2cn(C)c3c(CCO)cccc23)c2ccccc2)cc(OC)c1` (centres unmarked) [CPD-358], the SI in data set [1] amounted to 345.

With `COc1cc(O)cc(NC(C(=O)c2c[nH]c3ccccc23)c2ccccc2)c1` (centres unmarked) [CPD-359], the SI in data set [1] was determined as 501.

As to `COc1cc(NC(C(=O)c2cn(C)c3ccccc23)c2cccnc2)cc(OC)c1` (centres unmarked) [CPD-360], the SI in data set [1] is recorded as above 3541; in data set [3], above 4630.

For `COc1cc(NC(C(=O)c2c[nH]c3ccccc23)c2ccccc2)cc(OCCCO)c1` (centres unmarked) [CPD-361], the SI in data set [1] stood at 586.

With `COc1cc(NC(C(=O)c2c[nH]c3c(CO)cccc23)c2ccccc2)cc(OC)c1` (centres unmarked) [CPD-362], the SI in data set [1] was determined as 470.

On to `COc1cncc(NC(C(=O)c2c[nH]c3c(CCO)cccc23)c2ccccc2)c1` (centres unmarked) [CPD-364], for which the SI in data set [1] came out at 55.

For the compound `COc1cc(NC(C(=O)c2c[nH]c3c(CCN(C)C)cccc23)c2ccccc2)cc(OC)c1` (centres unmarked) [CPD-365], the SI in data set [1] was 6.

In the case of `O=C(c1c[nH]c2ccccc12)C(Nc1cccc(O)c1)c1ccccc1` (centres unmarked) [CPD-366], the SI in data set [1] is on record as 293.

In the case of `CCOC(=O)CCCOc1cc(NC(C(=O)c2c[nH]c3ccccc23)c2ccccc2)cc(OC)c1` (centres unmarked) [CPD-367], the SI in data set [1] is listed as above 2863.

As to `COc1cc(NC(C(=O)c2c[nH]c3ccccc23)c2ccc(C)cc2)cc(OCCO)c1` (centres unmarked) [CPD-369], the SI in data set [1] was 1306.

For `COc1cc(NC(C(=O)c2c[nH]c3ccc(CCO)cc23)c2ccccc2)cc(OC)c1` (centres unmarked) [CPD-370], the SI in data set [1] turned out to be 1152.

In the case of `COc1cc(NC(C(=O)c2c[nH]c3c(CCO)cccc23)c2ccc(F)cc2)cc(OC)c1` (centres unmarked) [CPD-371], the SI in data set [1] worked out at 389.

The record behind these values is patent US12012411B2, “Viral replication inhibitors” (Katholieke Universiteit Leuven, priority 2011, dated 2024).
